Data: paper PMC8557866, “Novel Small Molecule Growth Inhibitor Affecting Bacterial Outer Membrane Reduces Extraintestinal Pathogenic Escherichia coli (ExPEC) Infection in Avian Model” (Microbiology Spectrum, 2021)

How the values were obtained:
[1] = system: serum metabolites of chickens; assay: Effect of GIs on serum metabolome of chickens (LC-MS); format: in vivo; settings: vs NC chickens
[2] = system: cecal microbiota of chickens; assay: Effect of GIs on cecal microbiota of chickens (16S rRNA metagenomics); format: in vivo
[3] = family level, individual animal 1 of group
[4] = family level, individual animal 2 of group
[5] = family level, individual animal 3 of group
[6] = family level, individual animal 4 of group
[7] = family level, individual animal 5 of group

COc1ccc(CNCc2cccc(C(F)(F)F)c2)cc1OCC(O)CN1CCCC1 (centres unmarked) [GI-7]
Fold change: 15S-Hydroxypentaenoate [1]: −1.3
Fold change: 19-Hydroxytestosterone [1]: −2.4
Fold change: (15R)-Hydroxypentaenoate [1]: −1.3
Fold change: L-Arginine [1]: 1.0
Fold change: Linoleate [1]: −1.8
Fold change: Oleate [1]: 2
Fold change: α-Carboxyethylhydroxychroman [1]: −2.8
Bacilli abundance ([2]; cecum, class level, printed as change 4% to 14%): 14%
Lactobacillaceae population ([2]; cecum, family level, printed as change 1% to 11%): 11%
Lactobacillales abundance ([2]; cecum, order level, printed as change 4% to 14%): 14%
Lactobacillus helveticus abundance ([2]; cecum, species, printed as change 0% to 4%): 4%
Lactobacillus zeae abundance ([2]; cecum, species, printed as change 0% to 7%): 7%
Relative abundance (%) Bacillaceae [2, 3]: 0.0%
Relative abundance (%) Bifidobacteriaceae [2, 3]: 0.0%
Relative abundance (%) Clostridiaceae 1 [2, 3]: 0.0%
Relative abundance (%) Enterobacteriaceae [2, 3]: 13.2%
Relative abundance (%) Enterococcaceae [2, 3]: 5.4%
Relative abundance (%) Erysipelotrichaceae [2, 3]: 0.0%
Relative abundance (%) Lachnospiraceae [2, 3]: 41.6%
Relative abundance (%) Lactobacillaceae [2, 3]: 11.5%
Relative abundance (%) Non-Enterobacteriaceae Gammaproteobacteria [2, 3]: 0.0%
Relative abundance (%) Peptostreptococcaceae [2, 3]: 11.1%
Relative abundance (%) Ruminococcaceae [2, 3]: 16.9%
Relative abundance (%) Unassigned [2, 3]: 0.0%
Relative abundance (%) Bacillaceae [2, 4]: 0.0%
Relative abundance (%) Bifidobacteriaceae [2, 4]: 0.0%
Relative abundance (%) Clostridiaceae 1 [2, 4]: 0.0%
Relative abundance (%) Enterobacteriaceae [2, 4]: 17.9%
Relative abundance (%) Enterococcaceae [2, 4]: 0.0%
Relative abundance (%) Erysipelotrichaceae [2, 4]: 0.0%
Relative abundance (%) Lachnospiraceae [2, 4]: 62.5%
Relative abundance (%) Lactobacillaceae [2, 4]: 13.0%
Relative abundance (%) Non-Enterobacteriaceae Gammaproteobacteria [2, 4]: 0.0%
Relative abundance (%) Peptostreptococcaceae [2, 4]: 0.0%
Relative abundance (%) Ruminococcaceae [2, 4]: 6.4%
Relative abundance (%) Unassigned [2, 4]: 0.0%
Relative abundance (%) Bacillaceae [2, 5]: 3.0%
Relative abundance (%) Bifidobacteriaceae [2, 5]: 0.0%
Relative abundance (%) Clostridiaceae 1 [2, 5]: 0.0%
Relative abundance (%) Enterobacteriaceae [2, 5]: 5.5%
Relative abundance (%) Enterococcaceae [2, 5]: 8.8%
Relative abundance (%) Erysipelotrichaceae [2, 5]: 3.8%
Relative abundance (%) Lachnospiraceae [2, 5]: 49.6%
Relative abundance (%) Lactobacillaceae [2, 5]: 7.7%
Relative abundance (%) Non-Enterobacteriaceae Gammaproteobacteria [2, 5]: 0.0%
Relative abundance (%) Peptostreptococcaceae [2, 5]: 5.2%
Relative abundance (%) Ruminococcaceae [2, 5]: 16.1%
Relative abundance (%) Unassigned [2, 5]: 0.0%
Relative abundance (%) Bacillaceae [2, 6]: 0.0%
Relative abundance (%) Bifidobacteriaceae [2, 6]: 0.0%
Relative abundance (%) Clostridiaceae 1 [2, 6]: 0.0%
Relative abundance (%) Enterobacteriaceae [2, 6]: 23.4%
Relative abundance (%) Enterococcaceae [2, 6]: 0.0%
Relative abundance (%) Erysipelotrichaceae [2, 6]: 5.5%
Relative abundance (%) Lachnospiraceae [2, 6]: 37.8%
Relative abundance (%) Lactobacillaceae [2, 6]: 11.8%
Relative abundance (%) Non-Enterobacteriaceae Gammaproteobacteria [2, 6]: 0.0%
Relative abundance (%) Peptostreptococcaceae [2, 6]: 7.9%
Relative abundance (%) Ruminococcaceae [2, 6]: 13.4%
Relative abundance (%) Unassigned [2, 6]: 0.0%
Relative abundance (%) Bacillaceae [2, 7]: 0.0%
Relative abundance (%) Bifidobacteriaceae [2, 7]: 0.0%
Relative abundance (%) Clostridiaceae 1 [2, 7]: 0.0%
Relative abundance (%) Enterobacteriaceae [2, 7]: 12.5%
Relative abundance (%) Enterococcaceae [2, 7]: 0.0%
Relative abundance (%) Erysipelotrichaceae [2, 7]: 5.3%
Relative abundance (%) Lachnospiraceae [2, 7]: 59.6%
Relative abundance (%) Lactobacillaceae [2, 7]: 10.9%
Relative abundance (%) Non-Enterobacteriaceae Gammaproteobacteria [2, 7]: 0.0%
Relative abundance (%) Peptostreptococcaceae [2, 7]: 0.0%
Relative abundance (%) Ruminococcaceae [2, 7]: 11.5%
Relative abundance (%) Unassigned [2, 7]: 0.0%
Abundance (%) in cecal microbiota: Anaerostipes ([2]; genus level): 0.0%
Abundance (%) in cecal microbiota: Anaerotruncus ([2]; genus level): 0.0%
Abundance (%) in cecal microbiota: Bacillus ([2]; genus level): 0.6%
Abundance (%) in cecal microbiota: Bifidobacterium ([2]; genus level): 0.0%
Abundance (%) in cecal microbiota: Blautia ([2]; genus level): 1.8%
Abundance (%) in cecal microbiota: Butyricicoccus ([2]; genus level): 4.0%
Abundance (%) in cecal microbiota: CAG-56 ([2]; genus level): 0.0%
Abundance (%) in cecal microbiota: Caproiciproducens ([2]; genus level): 0.0%
Abundance (%) in cecal microbiota: Clostridioides ([2]; genus level): 0.0%
Abundance (%) in cecal microbiota: Clostridium sensu stricto 1 ([2]; genus level): 0.0%
Abundance (%) in cecal microbiota: Enterococcus ([2]; genus level): 2.9%
Abundance (%) in cecal microbiota: Erysipelatoclostridium ([2]; genus level): 0.0%
Abundance (%) in cecal microbiota: Escherichia -Shigella ([2]; genus level): 12.3%
Abundance (%) in cecal microbiota: Flavonifractor ([2]; genus level): 3.8%
Abundance (%) in cecal microbiota: Lachnoclostridium ([2]; genus level): 13.0%
Abundance (%) in cecal microbiota: Lactobacillus ([2]; genus level): 11.02^a^,^b %
Abundance (%) in cecal microbiota: Negativibacillus ([2]; genus level): 0.0%
Abundance (%) in cecal microbiota: Oscillibacter ([2]; genus level): 3.0%
Abundance (%) in cecal microbiota: Ruminiclostridium 9 ([2]; genus level): 0.0%
Abundance (%) in cecal microbiota: Ruminococcaceae UCG-005 ([2]; genus level): 0.0%
Abundance (%) in cecal microbiota: Ruminococcaceae UCG-014 ([2]; genus level): 0.0%
Abundance (%) in cecal microbiota: Sellimonas ([2]; genus level): 0.0%
Abundance (%) in cecal microbiota: Shuttleworthia ([2]; genus level): 1.7%
Abundance (%) in cecal microbiota: Tyzzerella ([2]; genus level): 0.0%
Abundance (%) in cecal microbiota: UBA1819 ([2]; genus level): 0.0%
Abundance (%) in cecal microbiota: [Clostridium] inoculum group ([2]; genus level): 0.8%
Abundance (%) in cecal microbiota: [Eubacterium] coprostanoligenes group ([2]; genus level): 1.5%
Abundance (%) in cecal microbiota: [Ruminococcus] gauvreauii group ([2]; genus level): 3.0%
Abundance (%) in cecal microbiota: [Ruminococcus] torques group ([2]; genus level): 24.8%
